Measured values from several laboratories, pooled; numbers as filed in NIAID ChemDB.

Common to all: whole-cell or culture tests; species: HIV-1; measure: EC50

ECn is the concentration giving n% inhibition of infection, replication or growth.

CCOC(=O)c1ccc(CN2CCC(Nc3nc(Oc4c(C)cc(/C=C/C#N)cc4C)c4sccc4n3)CC2)cc1 ; changes: NNRTI-resistant (RT Y181C) ; read by: MTT ; cells: MT-4 ; strain: IIIB ; result: 0.0329 µM
CN1CCN(CCSCc2ccc(-c3cccc(-c4ccc(CSCCN5CCN(C)CC5)cc4)n3)cc2)CC1 ; read by: RT activity ; cells: PBMC ; strain: LAV ; result: 5.9 µM
CCc1c(Cc2ccccc2C)n(COCC#Cc2ccc(NC(=O)C(F)(F)F)cc2)c(=O)[nH]c1=O ; changes: K103N + Y181C ; read by: MTT ; cells: MT-4 ; strain: IIIB ; result: >45 µM
CC1=C(C(=O)Nc2ccc(Cl)c(C(=O)OC3CCCCC3C)c2)SCCO1 ; changes: RT-E138K ; read by: syncytia ; cells: CEM ; strain: TSAO-resistant (RT E138K) ; result: 0.75 µg/mL
CC(=O)c1c(C)nc(-c2ccccc2)nc1NC(=O)c1ccccc1 ; read by: GFP / fluorescence ; cells: HeLa ; strain: 4755-5 ; result: 0.05 µM
Cc1cnc(SCCN2CCN(C)CC2)nc1-c1cc2ccccc2s1 ; read by: RT activity ; cells: PBMC ; strain: LAV ; result: 6.5 µM
CCCCCCCCCC[N+](C)(C)CCCNCc1c(O)cc2c(c1O)-c1cc(ccc1O)[C@H]1NC(=O)[C@@H]3NC(=O)C4NC(=O)[C@@H](Cc5ccc(c(Cl)c5)Oc5cc3cc(c5O)Oc3ccc(cc3Cl)[C@@H](O)[C@H](NC1=O)C(=O)N[C@@H]2C(=O)O)NC(=O)[C@H](N)c1ccc(O)c(c1)Oc1cc(O)cc4c1 ; changes: RT-L100I ; read by: syncytia ; cells: CEM ; result: 5.3 µM
CCCCCOC(=O)c1cc(NC(=O)C2=C(C)OCCS2)ccc1Cl ; changes: RT-V106A ; read by: syncytia ; cells: CEM ; strain: Nevirapine-resistant (RT V106A) ; result: 10 µg/mL
Cc1cc(C#N)cc(C)c1Oc1nc(NC2CCC(NCc3ccc(F)cc3)CC2)nc2ccsc12 ; read by: MTT ; cells: MT-4 ; strain: RES056 ; result: >2.77 µM
CCc1c(Cc2cc(C)cc(C)c2)n(COCC#Cc2ccc(C=O)cc2)c(=O)[nH]c1=O ; changes: K103N + Y181C ; read by: MTT ; cells: MT-4 ; strain: IIIB ; result: 4 µM
CC(C)C1=C(c2nc(C3CCCCC3)co2)C(c2ccc(O)c(Cl)c2)NC(=O)N1 ; read by: p24 / ELISA ; cells: CEM ; result: >5 µM
OCCC#Cc1nc(-c2ccc(F)cc2)c(-c2ccncc2)n1CCCc1ccccc1 ; read by: p24 ; cells: Jurkat cells ; strain: BaL ; result: >1 µM
CCCOC(=O)c1ccc(C)c(NC(=O)C2=C(C)OCCS2)c1 ; changes: RT-Y181C ; read by: syncytia ; cells: CEM ; strain: PYR-resistant (RT Y181C) ; result: >10 µg/mL
CCN1C[C@H](C)N2C(=C(O)C3C(=O)N4Cc5ccc(F)cc5OCCCCS(=O)(=O)N(C5CC5)C(=N4)C32)C1=O ; cells: MT-4 ; strain: LAII(IIIB) ; result: 2.88 µM
CC1=C(C(=O)N(C)c2ccc(Cl)c(C(=O)OC(C)C)c2)SCCO1 ; read by: syncytia ; cells: CEM ; strain: IIIB ; result: >10 µg/mL
CN(C)CCSc1nc(-c2cccs2)cc(-c2cccs2)n1 ; read by: RT activity ; cells: PBMC ; strain: LAV ; result: 48.9 µM
CCc1c(Cc2cc(C)cc(C)c2)n(COCC#Cc2ccc(O)cc2)c(=O)[nH]c1=O ; changes: K103N + Y181C ; read by: MTT ; cells: MT-4 ; strain: IIIB ; result: 6 µM
CC1=C(C(=O)Nc2cc(Cl)cc(C(=O)OC(C)C)c2)SCCO1 ; read by: syncytia ; cells: CEM ; strain: IIIB ; result: 5 µg/mL
CN(C)CCSc1ccc(-c2ccncn2)cc1 ; read by: RT activity ; cells: PBMC ; strain: LAV ; result: 25.5 µM
CCN1C[C@H](C)N2C(=C(O)C3C(=O)N4Cc5cc(Cl)c(F)cc5OCCCCCS(=O)(=O)N(C)C(=N4)C32)C1=O ; cells: MT-4 ; strain: LAII(IIIB) ; result: 0.8 µM
Cc1ccccc1CN1CCC(Nc2nc(Oc3c(C)cc(/C=C/C#N)cc3C)c3sccc3n2)CC1 ; changes: NNRTI-resistant (RT F227L V106A) ; read by: MTT ; cells: MT-4 ; strain: IIIB ; result: 0.0614 µM
O=C1NC(C2CC2)=C(C(=O)OCC2CCCCC2)C(c2ccc([N+](=O)[O-])cc2)N1 ; read by: p24 / ELISA ; cells: CEM ; result: >5 µM
CN1c2ccccc2C2C1C=C(C#N)C(=O)N2c1ccc([N+](=O)[O-])cc1 ; read by: GFP / fluorescence ; cells: HeLa ; strain: 2AG ; result: 0.19 µM
Cc1cc(/C=C/C#N)cc(C)c1Oc1nc(NC2CCN(Cc3ccc(F)cc3)CC2)nc2ccsc12 ; changes: NNRTI-resistant (RT K103N) ; read by: MTT ; cells: MT-4 ; strain: IIIB ; result: 0.00638 µM
CN(C)CCSc1nccc(-c2cccn2C)n1 ; read by: RT activity ; cells: PBMC ; strain: LAV ; result: 41.6 µM
CCCCOC(=O)c1cc(NC(=O)C2=C(C)OCCS2)ccc1Cl ; changes: RT-L100I ; read by: syncytia ; cells: CEM ; strain: TIBO-resistant (RT L100I) ; result: 0.7 µg/mL
CCc1c(Cc2cc(C)cc(C)c2)n(COCC#Cc2cccc(O[Si](c3ccccc3)(c3ccccc3)C(C)(C)C)c2)c(=O)[nH]c1=O ; changes: K103N + Y181C ; read by: MTT ; cells: MT-4 ; strain: IIIB ; result: 6 µM
CCN1C[C@H](C)N2C(=C(O)C3C(=O)N4Cc5ccc(F)cc5OCCCS(=O)(=O)N(C)C(=N4)C32)C1=O ; cells: MT-4 ; strain: LAII(IIIB) ; result: 2.55 µM
CN1CCN(CCSc2nccc(-c3ccc(-c4cccs4)s3)n2)CC1 ; read by: RT activity ; cells: PBMC ; strain: LAV ; result: 12.9 µM
CCC1=C(C(=O)OCC2CCCCC2)C(c2ccc(OC(=O)c3cccnc3)c(Cl)c2)NC(=O)N1 ; read by: p24 / ELISA ; cells: CEM ; result: ≤1 µM
CCN1C[C@H](C)N2C(=C(O)C3C(=O)N(Cc4ccc(F)c(Cl)c4)N=C(C(=O)NC)C32)C1=O ; cells: MT-4 ; strain: LAII(IIIB) ; result: 3.4 µM
CCc1c(Cc2cc(C)cc(C)c2)n(COCC#Cc2ccccc2)c(=O)[nH]c1=O ; changes: EFV-resistant (K103R V179D P225H) ; read by: MTT ; cells: MT-4 ; strain: IIIB ; result: 12 µM
CCC1=C(C(=O)c2ccc(CC)cc2)C(c2cccc(O)c2)NC(=O)N1 ; read by: p24 / ELISA ; cells: CEM ; result: >5 µM
CCC1=C(C(=O)Nc2ccc(Cl)c(C(=O)OC(C)C)c2)SCCO1 ; read by: syncytia ; cells: CEM ; strain: IIIB ; result: 0.04 µg/mL
CCCCCCCCNc1ccc(C2NC(=O)NC(CC)=C2C(=O)OCC2CCCCC2)cc1 ; read by: p24 / ELISA ; cells: CEM ; result: >5 µM
CC1=C(C(=O)Nc2ccc(Cl)c(C(=O)OC3CCCC3)c2)SCCO1 ; changes: RT-V106A ; read by: syncytia ; cells: CEM ; strain: Nevirapine-resistant (RT V106A) ; result: 0.7 µg/mL
CCC1=C(Cc2ccccc2)C(c2cccc(OC)c2)NC(=O)N1 ; read by: p24 / ELISA ; cells: CEM ; result: >5 µM
Cc1cc(C#N)cc(C)c1Oc1nc(NC2CCN(Cc3ccc(S(N)(=O)=O)cc3)CC2)nc2sccc12 ; changes: NNRTI-resistant (RT L100I) ; read by: MTT ; cells: MT-4 ; strain: IIIB ; result: 0.00444 µM
C[C@H]1[C@H](O)[C@@H](C)/C=C/C=C/C=C/C=C/C=C/C=C/C=C/[C@H](O[C@@H]2O[C@H](C)[C@@H](O)[C@H](N)[C@@H]2O)C[C@@H]2O[C@](O)(C[C@@H](O)C[C@@H](O)CC[C@H](O)[C@@H](O)C[C@@H](O)CC(=O)O[C@H]1C)C[C@H](O)[C@H]2C(=O)O ; read by: p24 / RT activity ; cells: PBMC ; strain: G3 CLADE G R5 (NSI) ; result: 0.8 µM
COC(=O)c1cc(NC(=O)C2=C(C)OCCS2)ccc1Cl ; read by: syncytia ; cells: CEM ; strain: IIIB ; result: 4 µg/mL
Cc1cc(C#N)cc(C)c1Oc1nc(NC2CCN(Cc3ccc(S(N)(=O)=O)cc3)CC2C(=O)O)nc2ccsc12 ; changes: NNRTI-resistant (RT Y181C) ; read by: MTT ; cells: MT-4 ; strain: IIIB ; result: 3.3 µM
CCc1c(Cc2cc(C)cc(C)c2)n(COCC#Cc2cc3ccccc3c3ccccc23)c(=O)[nH]c1=O ; changes: K103N + Y181C ; read by: MTT ; cells: MT-4 ; strain: IIIB ; result: >80 µM
CCC1=C(C(=O)OCC2CCCCC2)C(c2ccc(C(=O)OC)cc2)NC(=O)N1 ; read by: p24 / ELISA ; cells: CEM ; result: ≤1 µM
CN(C)CCSc1nccc(-c2nccs2)n1 ; read by: RT activity ; cells: PBMC ; strain: LAV ; result: >100 µM
CCN1C[C@H](C)N2C(=C(O)C3C(=O)N4Cc5ccc(F)cc5OCCCCCN(C)C(=O)C(=N4)C32)C1=O ; cells: MT-4 ; strain: LAII(IIIB) ; result: 4.36 µM

Repeating the first 6 entries:

CCOC(=O)c1ccc(CN2CCC(Nc3nc(Oc4c(C)cc(/C=C/C#N)cc4C)c4sccc4n3)CC2)cc1 ; changes: NNRTI-resistant (RT Y181C) ; read by: MTT ; cells: MT-4 ; strain: IIIB ; result: 0.0329 µM
CN1CCN(CCSCc2ccc(-c3cccc(-c4ccc(CSCCN5CCN(C)CC5)cc4)n3)cc2)CC1 ; read by: RT activity ; cells: PBMC ; strain: LAV ; result: 5.9 µM
CCc1c(Cc2ccccc2C)n(COCC#Cc2ccc(NC(=O)C(F)(F)F)cc2)c(=O)[nH]c1=O ; changes: K103N + Y181C ; read by: MTT ; cells: MT-4 ; strain: IIIB ; result: >45 µM
CC1=C(C(=O)Nc2ccc(Cl)c(C(=O)OC3CCCCC3C)c2)SCCO1 ; changes: RT-E138K ; read by: syncytia ; cells: CEM ; strain: TSAO-resistant (RT E138K) ; result: 0.75 µg/mL
CC(=O)c1c(C)nc(-c2ccccc2)nc1NC(=O)c1ccccc1 ; read by: GFP / fluorescence ; cells: HeLa ; strain: 4755-5 ; result: 0.05 µM
Cc1cnc(SCCN2CCN(C)CC2)nc1-c1cc2ccccc2s1 ; read by: RT activity ; cells: PBMC ; strain: LAV ; result: 6.5 µM

Rows are shuffled and stem from different studies.